Literature values in PMC2935281 (Acta Crystallographica Section D: Biological Crystallography, 2010).

Columns and labels:
[1] = system: LS from M. tuberculosis (MtLS); conditions: cited from earlier work
C. albicans LS (CaLS) = conditions: cited from earlier work

O=c1[nH]c(Cl)c(CCCCOP(=O)(O)O)c(=O)[nH]1 [JC33, 4-(6-Chloro-2,4-dioxo-1,2,3,4-tetrahydropyrimidine-5-yl)-n-butyl 1-phosphate]
Binding enthalpy ΔH [1]: -10.52 ± 0.11 kcal/mol
Free energy of binding ΔG [1]: -8.52 ± 0.05 kcal/mol
No. of sites n [1]: 0.98 ± 0.04
TΔS [1]: -2.00 ± 0.12 kcal/mol
Binding enthalpy ΔH (C. albicans LS (CaLS)): -6.98 ± 0.24 kcal/mol
Free energy of binding ΔG (C. albicans LS (CaLS)): -9.38 ± 0.01 kcal/mol
No. of sites n (C. albicans LS (CaLS)): 1.15 ± 0.03
TΔS (C. albicans LS (CaLS)): 2.44 ± 0.25 kcal/mol
